Measured values from several laboratories, pooled; numbers as filed in NIAID ChemDB.

All rows: tests in culture; agent: Cryptococcus neoformans

An empty or dashed field is not shown. A number after MIC or MFC names an inhibition level or a share of isolates. Rows are shuffled and stem from different studies. Two numbers with a dash give a range or band. ECn: concentration that inhibits the pathogen or its effect by n%.

{"compound": "C1CCC(C[C@@H]2CN3C(=NC[C@@H]3C3CCCCC3)N2CCC23CC4CC(CC(C4)C2)C3)CC1", "strain or isolate": "ATCC 32045", "measure": "EC50", "result": "2.1 µg/mL"}
{"compound": "CN(C/C=C/C#CC(C)(C)C)Cc1cccc2ccccc12", "strain or isolate": "ATCC 32264", "read by": "broth dilution", "measure": "MIC100", "result": "0.39 µg/mL"}
{"compound": "C[C@@H](c1nc(-c2ccc(C#N)cc2)cs1)[C@](O)(Cn1cncn1)c1cc(F)ccc1F", "measure": "MIC90", "result": "0.016–0.125 µg/mL"}
{"compound": "CC(C)(C)C1CCC(CN2C3=NC[C@H](C4CCCCC4)N3C[C@H]2CC2CCCCC2)CC1", "strain or isolate": "ATCC 32045", "measure": "EC50", "result": "1.7 µg/mL"}
{"compound": "C[C@H](c1ncncc1F)[C@](O)(Cn1cncn1)c1ccc(F)cc1F", "strain or isolate": "ATCC", "read by": "broth dilution", "measure": "MIC80", "result": "0.18 µM"}
{"compound": "c1ccc2[nH]cnc2c1", "strain or isolate": "IU8698", "measure": "EC50", "result": "<4 µg/mL"}
{"compound": "CC(C)(C)[C@](O)(COc1ccc(Cl)cc1)Cn1cncn1", "measure": "MIC50", "result": "<0.01 µg/mL"}
{"compound": "CO[C@@H]1[C@@H](O)[C@H](O[C@@H]2[C@@H](O)[C@H](O[C@H]3[C@H](O)[C@@H](O)[C@H](O[C@H]4[C@H](O[C@H]5CC[C@]6(C)C7=C[C@H](O)[C@]89C(=O)O[C@@](C)(C/C=C/C(C)(C)O)[C@H]8CC[C@@]9(C)[C@@H]7CC[C@H]6C5(C)C)OC[C@@H](O[C@@H]5O[C@H](CO)[C@@H](O)[C@H](O[C@@H]6O[C@H](CO)[C@@H](O)[C@H](OC)[C@H]6O)[C@H]5O)[C@@H]4O)O[C@@H]3C)O[C@H](CO)[C@H]2O)O[C@H](CO)[C@H]1O", "strain or isolate": "ATCC32609", "measure": "MIC80", "result": "44.44 µM"}
{"compound": "CN(C/C=C/C#CC(C)(C)C)Cc1cccc2ccccc12", "measure": "MIC50", "result": "0.25 µg/mL"}
{"compound": "CCCCNC(=O)n1c(NC(=O)OC)nc2ccccc21", "strain or isolate": "IU4", "measure": "EC50", "result": "2.3 µg/mL"}
{"compound": "CC(C)(C)C1CCC(CN2C3=NC[C@H](C4CCCCC4)N3C[C@@H]2C2CCCCC2)CC1", "strain or isolate": "ATCC 32045", "measure": "EC50", "result": "3.3 µg/mL"}
{"compound": "CN(C/C=C/C#CC(C)(C)C)Cc1cccc2ccccc12", "strain or isolate": "ATCC32609", "measure": "MIC80", "result": "3.06 µM"}
{"compound": "C1CCC(C[C@@H]2CN=C3N2C[C@H](C2CCCCC2)N3CCC23CC4CC(CC(C4)C2)C3)CC1", "strain or isolate": "ATCC 32045", "measure": "EC50", "result": "2.1 µg/mL"}
{"compound": "CC1(C)C=C2C3CCC4[C@@]5(C)CCC(O)C(C)(C)C5CC[C@@]4(C)[C@]3(C)CC[C@@]2(C(=O)O)CC1", "strain or isolate": "ATCC 208821", "read by": "broth dilution", "measure": "MLC", "result": ">200 µg/mL"}
{"compound": "C[C@H]1[C@H](O)[C@@H](C)/C=C/C=C/C=C/C=C/C=C/C=C/C=C/[C@H](O[C@@H]2O[C@H](C)[C@@H](O)[C@H](N)[C@@H]2O)C[C@@H]2O[C@](O)(C[C@@H](O)C[C@@H](O)CC[C@H](O)[C@@H](O)C[C@@H](O)CC(=O)O[C@H]1C)C[C@H](O)[C@H]2C(=O)O", "measure": "MIC50", "result": "0.25–1 µg/mL"}
{"compound": "CN(C)C1=NC(=O)/C(=C/c2ccc(F)cc2)S1", "strain or isolate": "ATCC 32264", "read by": "broth dilution", "measure": "MIC100", "result": ">250 µg/mL"}
{"compound": "CCN1C2=NC[C@H](CC3CCCCC3)N2C[C@@H]1Cc1ccccc1", "strain or isolate": "ATCC 32045", "measure": "EC50", "result": "45.2 µg/mL"}
{"compound": "CCC(C)CC(C)CCCCCCCCC(=O)N[C@H]1C[C@@H](O)[C@H](NCCN)NC(=O)[C@@H]2[C@@H](O)CCN2C(=O)[C@H]([C@H](O)CCN)NC(=O)[C@H]([C@H](O)[C@@H](O)c2ccc(O)cc2)NC(=O)[C@@H]2C[C@@H](O)CN2C(=O)[C@H]([C@@H](C)O)NC1=O", "measure": "MIC90", "result": ">8 µg/mL"}
{"compound": "CCN1C2=NC[C@H](Cc3ccccc3)N2C[C@@H]1CC1CCCCC1", "strain or isolate": "ATCC 32045", "measure": "EC50", "result": "41 µg/mL"}
{"compound": "CN(C)C1=NC(=O)/C(=C/c2ccc(Cl)cc2)S1", "strain or isolate": "ATCC 32264", "read by": "broth dilution", "measure": "MIC100", "result": "8 µg/mL"}
{"compound": "C[C@@H]1O[C@@H](Oc2c(-c3ccc(O)c(O)c3)oc3cc(O)cc(O)c3c2=O)[C@H](O)[C@H](O)[C@H]1O", "strain or isolate": "ATCC 208821", "read by": "broth dilution", "measure": "MLC", "result": "200 µg/mL"}
{"compound": "Clc1ccc(-c2c(C(c3ccccc3)n3ccnc3)cnn2-c2ccc(Cl)cc2Cl)cc1", "measure": "MBC", "result": "33.3 µM"}
{"compound": "C1CCC([C@@H]2CN3C(=NC[C@H]3C3CCCCC3)N2CCC23CC4CC(CC(C4)C2)C3)CC1", "strain or isolate": "ATCC 32045", "measure": "EC50", "result": "3.8 µg/mL"}
{"compound": "Clc1ccc(-n2ncc(C(c3ccccc3)n3ccnc3)c2-c2ccccc2Cl)c(Cl)c1", "measure": "MBC", "result": "33.3 µM"}
{"compound": "C1CCC(C[C@H]2CN=C3N2C[C@H](C2CCCCC2)N3CCC23CC4CC(CC(C4)C2)C3)CC1", "strain or isolate": "ATCC 32045", "measure": "EC50", "result": "3.2 µg/mL"}
{"compound": "C=C(C)CCC[C@]1(C)OC(=O)[C@]23[C@@H](O)C=C4[C@@H](CC[C@H]5C(C)(C)[C@@H](O[C@@H]6OC[C@@H](O[C@@H]7O[C@H](CO)[C@@H](O)[C@H](O[C@@H]8O[C@H](CO)[C@@H](O)[C@H](OC)[C@H]8O)[C@H]7O)[C@H](O)[C@H]6O[C@@H]6O[C@H](C)[C@@H](O[C@@H]7O[C@H](CO)[C@@H](O)[C@H](O[C@@H]8O[C@H](CO)[C@@H](O)[C@H](OC)[C@H]8O)[C@H]7O)[C@H](O)[C@H]6O)CC[C@]45C)[C@]2(C)CC[C@@H]31", "strain or isolate": "ATCC32609", "measure": "MIC80", "result": "0.7 µM"}
{"compound": "C1CCC(C[C@@H]2CN=C3N2C[C@@H](C2CCCCC2)N3CCC23CC4CC(CC(C4)C2)C3)CC1", "strain or isolate": "ATCC 32045", "measure": "EC50", "result": "3.7 µg/mL"}
{"compound": "CCCOc1ccc2nc(NC(=O)OC)[nH]c2c1", "strain or isolate": "IU4", "measure": "EC50", "result": "<3.2 µg/mL"}
{"compound": "Nc1[nH]c(=O)ncc1F", "measure": "MIC90", "result": "2–8 µg/mL"}
{"compound": "Clc1ccc(-c2c(C(c3ccccc3)n3ccnc3)cnn2-c2ccc(Cl)cc2)cc1", "measure": "MBC", "result": "33.3 µM"}
{"compound": "O=c1c(O)c(-c2ccc(O)c(O)c2)oc2cc(O)cc(O)c12", "strain or isolate": "ATCC 208821", "read by": "broth dilution", "measure": "MLC", "result": "200 µg/mL"}

For reference, 3 entries again:

compound,strain or isolate,read by,measure,result
C[C@@H]1O[C@@H](Oc2c(-c3ccc(O)c(O)c3)oc3cc(O)cc(O)c3c2=O)[C@H](O)[C@H](O)[C@H]1O,ATCC 208821,broth dilution,MLC,200 µg/mL
CN(C/C=C/C#CC(C)(C)C)Cc1cccc2ccccc12,-,-,MIC50,0.25 µg/mL
c1ccc2[nH]cnc2c1,IU8698,-,EC50,<4 µg/mL